Measured values from several laboratories, pooled; numbers as filed in NIAID ChemDB.

Common to all: target-level tests; organism: HIV-1; protein: Protease; measure: IC50

ICn is the concentration giving n% inhibition.

compound | strain | read by | value
Cc1ccc(Cl)cc1N1CCN(Cc2cn([C@@H](Cc3ccccc3)[C@H](Cc3ccccc3)NC(=O)O[C@@H]3CCOC3)nn2)CC1 |  | fluorescence | <5 µM
COc1cc([C@H]2O[C@H](c3ccc(OC(C)C(O)c4ccc5c(c4)OCO5)c(OC)c3)[C@H](C)[C@H]2C)ccc1O |  | substrate cleavage | >125 µM
CC(C)[C@H](NC(=O)COc1cccc2ccccc12)C(=O)N[C@@H](Cc1ccccc1)[C@H](O)C(=O)N1[C@H](C(=O)NC(C)(C)C)C[C@@H]2CCCC[C@@H]21 | BRU | substrate cleavage | 0.0057 µM
O=c1c(O)c(-c2ccc(O)cc2O)oc2cc(O)cc(O)c12 | SF2 | HPLC / fluorescence | 24 µM
CC(C)[C@H](NC(=O)OCc1ccncc1)C(=O)N[C@@H](Cc1ccccc1)[C@@H](O)[C@H](O)[C@H](Cc1ccccc1)NC(=O)[C@@H](NC(=O)OCc1ccncc1)C(C)C |  | fluorescence | <0.005 µM
COc1cc(-c2cc(=O)c3c(O)c(OC)c(OC)c(OC)c3o2)cc(OC)c1OC | SF2 | HPLC / fluorescence | 190 µM
CC1(C)CC[C@]2(C(=O)O)CCC3=C(CCC4[C@@]5(C)C[C@H](O)[C@H](O)[C@@](C)(C(=O)O)C5CC[C@@]34C)C2C1 |  | substrate cleavage / fluorescence | 89 µg/mL
O=c1c(O)c(-c2ccc(O)c(O)c2)oc2cc(O)c(O)c(O)c12 | SF2 | HPLC / fluorescence | 1000 µM
C=C(C)C1CC[C@]2(C)C(CC=C3C4[C@H](C)[C@@H](C)CC[C@]4(C)CC[C@]32C)[C@@]1(C)CCC(=O)O |  | substrate cleavage / fluorescence | 360 µg/mL
O=C1NN=C(C(O)c2ccccc2)C1(O)c1ccccc1 |  | substrate cleavage / HPLC | >50 µM
CCOC(=O)N1CCN(Cc2cn([C@@H](Cc3ccccc3)[C@H](Cc3ccccc3)NC(=O)OC3CCCC3)nn2)CC1 |  | fluorescence | >5 µM
COc1cc(C(O)C(C)Oc2ccc([C@@H]3O[C@H](c4ccc(O)c(OC)c4)[C@@H](C)[C@@H]3C)cc2OC)ccc1O |  | substrate cleavage | >125 µM
Cc1ccccc1-n1nnc(C(c2ccccc2)(c2ccccc2)n2ccnc2)c1C |  | substrate cleavage / fluorescence | 48.4 µM
O=C(CCc1ccccc1)C(F)(F)Cc1ccccc1 |  | fluorescence | <270 µM
CC(C)(C)NC(=O)[C@@H]1CCCN1C(=O)[C@@H](O)[C@H](Cc1ccccc1)NC(=O)[C@H](CC(N)=O)NC(=O)COc1cccc2ccccc12 | BRU | substrate cleavage | 0.00058 µM
O=C(N[C@@H](Cc1ccccc1)[C@H](Cc1ccccc1)n1cc(CN2CCN(c3ccc(F)cc3)CC2)nn1)OC1CCCC1 |  | fluorescence | <5 µM
CC(C)C(NC(=O)[C@@H](NC(=O)OCc1ccccc1)C(C)C)C(F)(F)C(=O)C(CC1CCCCC1)NC(=O)[C@@H](NC(=O)OCc1ccccc1)C(C)C |  | fluorescence | <0.001 µM
CC(C)(C)NC(=O)[C@@H]1C[C@@H]2CCCC[C@@H]2N1C(=O)[C@@H](O)[C@H](Cc1ccccc1)NC(=O)[C@H](CC(N)=O)NC(=O)COc1cccc2ccccc12 | BRU | substrate cleavage | 0.0011 µM
O=C(O)c1ccccc1C(=O)CCC(=O)c1ccccc1C(=O)O |  | substrate cleavage / HPLC | >50 µM
O=c1cc(-c2ccccc2)oc2cc(O)cc(O)c12 | SF2 | HPLC / fluorescence | 125 µM
CC(C)(C)NC(=O)[C@@H]1C[C@@H]2CCCC[C@@H]2N1C(=O)[C@@H](O)[C@H](Cc1ccccc1)NC(=O)[C@H](CC(N)=O)NC(=O)COc1ccccc1 | BRU | substrate cleavage | 0.0019 µM
O=C(CCc1ccccc1)C(F)Cc1ccccc1 |  | fluorescence | <270 µM
O=c1c(-c2ccc(O)cc2)coc2cc(O)cc(O)c12 |  | substrate cleavage / fluorescence | 360 µg/mL
O=c1c(O)c(-c2ccc(O)cc2)oc2cc(O)cc(O)c12 | SF2 | HPLC / fluorescence | 250 µM
CC(C)(C)OC(=O)N[C@@H](Cc1ccccc1)[C@H](O)CNC[C@@H](O)[C@H](Cc1ccccc1)NC(=O)C(C)(O)C(C)(C)C |  | substrate cleavage | 0.05 µM
CC[C@@]1(O)C(=O)NCc2c1cc1n(c2=O)Cc2cc3ccccc3nc2-1 |  | substrate cleavage / fluorescence | >100 µM
CC(C)[C@H](NC(=O)OCc1ccccc1)C(=O)N[C@@H](CSc1ccccn1)[C@@H](O)[C@H](O)[C@H](CSc1ccccn1)NC(=O)[C@@H](NC(=O)OCc1ccccc1)C(C)C |  | fluorescence | >0.01 µM
O=C(N[C@@H](Cc1ccccc1)[C@H](Cc1ccccc1)n1cc(CN2CCN(c3ccc(C(F)(F)F)cc3)CC2)nn1)OC1CCCC1 |  | fluorescence | ~5 µM
CNCC(=O)N(CC(=O)NC12NC(=O)C3(O)C4C5CC(C6C5C3C61)C42)C(C)C |  | absorbance | 10 µM
O=C1OC(CCc2ccccc2)(c2ccccc2)CC(O)=C1SCc1ccccc1 |  | substrate cleavage | 0.1 µM
O=C(O)c1cc(=O)c2c(OCC(O)COc3cccc4oc(C(=O)O)cc(=O)c34)cccc2o1 | SF2 | HPLC / fluorescence | 290 µM
CC(C)[C@H](NC(=O)OCc1ccccc1)C(=O)N[C@@H](CSc1ncccn1)[C@@H](O)[C@H](O)[C@H](CSc1ncccn1)NC(=O)[C@@H](NC(=O)OCc1ccccc1)C(C)C |  | fluorescence | <0.1 µM
O=C(O)C(O)(c1ccccc1)C1(O)CCCCC1 |  | substrate cleavage / HPLC | >50 µM
CC(C)[C@H](CC(=O)N(C)Cc1ccccn1)C(=O)N[C@@H](Cc1ccccc1)[C@@H](O)[C@H](O)[C@H](Cc1ccccc1)NC(=O)[C@@H](CC(=O)N(C)Cc1ccccn1)C(C)C |  | fluorescence | >0.01 µM
O=C(N[C@@H](Cc1ccccc1)[C@H](Cc1ccccc1)n1cc(CN2CCC(O)(c3ccc(Cl)c(C(F)(F)F)c3)CC2)nn1)OC1CCCC1 |  | fluorescence | ~5 µM
CC(NC(=O)OCc1ccccc1)C(=O)NC(C(=O)NC(Cc1ccccc1)C(=O)NC12NC(=O)C3(O)C4C5CC(C6C5C3C61)C42)C(C)C |  | absorbance | 0.75 µM
O=c1oc2ccccc2c(O)c1Cc1c(O)c2ccccc2oc1=O |  | substrate cleavage / HPLC | >50 µM
Cc1ccc(C)c(N2CCN(Cc3cn([C@@H](Cc4ccccc4)[C@H](Cc4ccccc4)NC(=O)OC4CCCC4)nn3)CC2)c1 |  | fluorescence | <5 µM
CC(NC(=S)c1ncccn1)C(=O)NC(C(=O)NC12NC(=O)C3(O)C4C5CC(C6C5C3C61)C42)C(C)C |  | absorbance | 0.5 µM
CC(=O)NC(C(=O)O)(C(=O)O)c1cc2ccccc2s1 |  | substrate cleavage / HPLC | >50 µM
CC1(C)S[C@H]([C@H](NC(=O)Cc2ccccc2)C(=O)NCc2ccccc2)N[C@H]1C(=O)NCCNC(=O)[C@@H]1N[C@@H]([C@H](NC(=O)Cc2ccccc2)C(=O)NCc2ccccc2)SC1(C)C | RF | radiometric | 0.9 µM

The last 2 rows once more:

compound	strain	read by	value
CC(=O)NC(C(=O)O)(C(=O)O)c1cc2ccccc2s1		substrate cleavage / HPLC	>50 µM
CC1(C)S[C@H]([C@H](NC(=O)Cc2ccccc2)C(=O)NCc2ccccc2)N[C@H]1C(=O)NCCNC(=O)[C@@H]1N[C@@H]([C@H](NC(=O)Cc2ccccc2)C(=O)NCc2ccccc2)SC1(C)C	RF	radiometric	0.9 µM

Rows are shuffled and stem from different studies. Blank or dashed fields: not listed here.